{"source": "patent US20060111335A1", "about": "“Photoactivated anti-viral and anti-cancer agent” (priority 2002, published 2006)", "test_system": "Calf thymus DNA", "assay": "Dark association with DNA, UV-Visible titration (Example XI)", "type": "binding", "details": "for Aobserved / Δεapp = εf − εapp / εapp / Aobs / [DNA]/Δεapp: pH 7, I=0.15; for Δε = εf − εb: from slope of [DNA]/Δεapp versus [DNA]; for εb, extinction coefficient of the DNA-bound form: εb = εf − Δε", "key": {"[1]": {"details": "337 nm, [DNA] 0, [OCTBP] 2.26E−5"}, "[2]": {"details": "337 nm, [DNA] 1.30E−4, [OCTBP] 2.12E−5"}, "[3]": {"details": "337 nm, [DNA] 1.70E−4, [OCTBP] 2.08E−5"}, "[4]": {"details": "337 nm, [DNA] 2.46E−4, [OCTBP] 2.00E−5"}, "[5]": {"details": "337 nm, [DNA] 2.81E−4, [OCTBP] 1.96E−5"}, "[6]": {"details": "337 nm, [DNA] 3.80E−4, [OCTBP] 1.86E−5"}, "[7]": {"details": "337 nm, [DNA] 4.53E−5, [OCTBP] 2.21E−5"}, "[8]": {"details": "380 nm, [DNA] 0, [BISNMe2] 3.02E−5"}, "[9]": {"details": "380 nm, [DNA] 1.30E−4, [BISNMe2] 2.84E−5"}, "[10]": {"details": "380 nm, [DNA] 1.70E−4, [BISNMe2] 2.78E−5"}, "[11]": {"details": "380 nm, [DNA] 2.09E−4, [BISNMe2] 2.72E−5"}, "[12]": {"details": "380 nm, [DNA] 2.46E−4, [BISNMe2] 2.67E−5"}, "[13]": {"details": "380 nm, [DNA] 2.81E−4, [BISNMe2] 2.62E−5"}, "[14]": {"details": "380 nm, [DNA] 3.16E−4, [BISNMe2] 2.57E−5"}, "[15]": {"details": "380 nm, [DNA] 8.88E−5, [BISNMe2] 2.89E−5"}}, "data": [{"smiles": "CC1=C[N]2c3c4c(ccc3=C1C)=C(C)C(C)=C[N]4[Rh+]21([Cl])([Cl])[N]2C=C(C)C(C)=c3ccc4c(c32)[N]1C=C(C)C=4C.[Cl-]", "note": "[OCTBP, cis-dichlorobis(3,4,7,8-tetramethyl-1,10-phenanthroline) rhodium(III) chloride]", "values": [{"measurement": "Aobserved", "setting": "[1]", "value": 0.216}, {"measurement": "Δεapp = εf − εapp", "setting": "[1]", "value": 0}, {"measurement": "εapp", "setting": "[1]", "value": 9558}, {"measurement": "Aobserved", "setting": "[2]", "value": 0.209}, {"measurement": "Δεapp = εf − εapp", "setting": "[2]", "value": 300}, {"measurement": "εapp", "setting": "[2]", "value": 9858}, {"measurement": "Aobserved", "setting": "[3]", "value": 0.206}, {"measurement": "Δεapp = εf − εapp", "setting": "[3]", "value": 346}, {"measurement": "εapp", "setting": "[3]", "value": 9904}, {"measurement": "Aobserved", "setting": "[4]", "value": 0.199}, {"measurement": "Δεapp = εf − εapp", "setting": "[4]", "value": 392}, {"measurement": "εapp", "setting": "[4]", "value": 9950}, {"measurement": "Aobserved", "setting": "[5]", "value": 0.195}, {"measurement": "Δεapp = εf − εapp", "setting": "[5]", "value": 391}, {"measurement": "εapp", "setting": "[5]", "value": 9949}, {"measurement": "Aobserved", "setting": "[6]", "value": 0.187}, {"measurement": "Δεapp = εf − εapp", "setting": "[6]", "value": 496}, {"measurement": "εapp", "setting": "[6]", "value": 10054}, {"measurement": "Aobserved", "setting": "[7]", "value": 0.214}, {"measurement": "Δεapp = εf − εapp", "setting": "[7]", "value": 125}, {"measurement": "εapp", "setting": "[7]", "value": 9683}, {"measurement": "Δε = εf − εb", "value": 769.23}, {"measurement": "εb, extinction coefficient of the DNA-bound form", "value": 8788.77}]}, {"smiles": "CN(C)C1=c2ccc3c4c2[N](C=C1)[Rh+]1([Cl])([Cl])([N]4C=CC=3N(C)C)[N]2C=CC(N(C)C)=c3ccc4c(c32)[N]1C=CC=4N(C)C.[Cl-]", "note": "[BISNMe2, cis-dichlorobis(N,N-dimethylamino)-1,10-phenanthroline} rhodium(III) chloride]", "values": [{"measurement": "Aobs", "setting": "[8]", "value": 0.4550}, {"measurement": "[DNA]/Δεapp", "setting": "[8]", "value": 0}, {"measurement": "Δεapp = εf − εapp", "setting": "[8]", "value": 0}, {"measurement": "εapp", "setting": "[8]", "value": 15066}, {"measurement": "Aobs", "setting": "[9]", "value": 0.3086}, {"measurement": "[DNA]/Δεapp", "setting": "[9]", "value": "3.10E−8"}, {"measurement": "Δεapp = εf − εapp", "setting": "[9]", "value": 4200}, {"measurement": "εapp", "setting": "[9]", "value": 10866}, {"measurement": "Aobs", "setting": "[10]", "value": 0.2896}, {"measurement": "[DNA]/Δεapp", "setting": "[10]", "value": "3.66E−8"}, {"measurement": "Δεapp = εf − εapp", "setting": "[10]", "value": 4649}, {"measurement": "εapp", "setting": "[10]", "value": 10417}, {"measurement": "Aobs", "setting": "[11]", "value": 0.2756}, {"measurement": "[DNA]/Δεapp", "setting": "[11]", "value": "4.24E−8"}, {"measurement": "Δεapp = εf − εapp", "setting": "[11]", "value": 4934}, {"measurement": "εapp", "setting": "[11]", "value": 10132}, {"measurement": "Aobs", "setting": "[12]", "value": 0.2668}, {"measurement": "[DNA]/Δεapp", "setting": "[12]", "value": "4.85E−8"}, {"measurement": "Δεapp = εf − εapp", "setting": "[12]", "value": 5073}, {"measurement": "εapp", "setting": "[12]", "value": 9993}, {"measurement": "Aobs", "setting": "[13]", "value": 0.2644}, {"measurement": "[DNA]/Δεapp", "setting": "[13]", "value": "5.65E−8"}, {"measurement": "Δεapp = εf − εapp", "setting": "[13]", "value": 4974}, {"measurement": "εapp", "setting": "[13]", "value": 10092}, {"measurement": "Aobs", "setting": "[14]", "value": 0.2526}, {"measurement": "[DNA]/Δεapp", "setting": "[14]", "value": "6.03E−8"}, {"measurement": "Δεapp = εf − εapp", "setting": "[14]", "value": 5237}, {"measurement": "εapp", "setting": "[14]", "value": 9829}, {"measurement": "Aobs", "setting": "[15]", "value": 0.3419}, {"measurement": "[DNA]/Δεapp", "setting": "[15]", "value": "2.74E−8"}, {"measurement": "Δεapp = εf − εapp", "setting": "[15]", "value": 3236}, {"measurement": "εapp", "setting": "[15]", "value": 11830}, {"measurement": "Δε = εf − εb", "value": 5000}, {"measurement": "εb, extinction coefficient of the DNA-bound form", "value": 10066}]}]}
